Compound potency records, mixed from different reports. Data source: NIAID ChemDB in PubChem.

Shared fields: growth or infection tests; agent: Candida albicans; method: agar diffusion / agar; read-out: zone

An empty or dashed field is not shown. Lines come from different laboratories, so protocols vary. Zone: diameter of growth inhibition.

compound	tested at	strain or isolate	result
N#Cc1ccc(Nc2nc(Oc3cccc4cccnc34)nc(N3CCN(c4cccc(Cl)c4)CC3)n2)cc1C(F)(F)F	100 µg/disc	MTCC 183	25 mm
COc1ccc(N2C(=O)N(c3ccc(F)cc3)C(=N)C2=S)cc1	5 mg/mL	IMRU-3669	19 mm
CCOc1ccc(S(=O)(=O)N2CCOCC2)cc1-c1nc2ncccc2c(=O)[nH]1	0.002 µg/mL	ATCC 10231	17 mm
CC(C)C[C@@H]1NC(=O)[C@H](C(C)C)NC1=O	32 µg/mL	MTCC 277	18 mm
COc1ccc(Cc2ccc(OC)c(-c3nnc4sc(-c5cccnc5)nn34)c2)cc1-c1nnc2sc(-c3cccnc3)nn12	100 µg/disc	ATCC 10231	26 mm
O=C(CNc1ccc(Cl)cc1)Cc1ccc(-c2nc(-c3ccccc3)c(-c3ccccc3)s2)cc1	100 µg/mL	ATCC 10231	21 mm
O=C(CN1C(=O)S/C(=C\c2c(Cl)cccc2Cl)C1=O)c1ccc(Cl)cc1	5000 µg/mL	ATCC 90028	18 mm
CC(=O)N1CCN(c2ccc(OC[C@H]3CO[C@](Cn4ccnc4)(c4ccc(Cl)cc4Cl)O3)cc2)CC1	20 mg/mL	C5	12 mm
COC(=O)N[C@H](C(=O)NN(CC[C@@]1(Cc2ccccc2)C(=O)N(C2c3ccccc3C[C@H]2O[Si](C)(C)C(C)(C)C)C[C@@H]1O[Si](C)(C)C(C)(C)C)Cc1ccc(Br)cc1)C(C)(C)C	10 mg/mL		12.8 mm
O=C(Cc1ccc(-c2nc(-c3ccccc3)c(-c3ccccc3)s2)cc1)CN1CCOCC1	100 µg/mL	ATCC 10231	19 mm
CC(=NNC(=O)c1snnc1C(F)(F)F)c1ccccn1	100 µg/mL	MTCC 227	0 mm
COc1ccc(Cc2ccc(OC)c(-c3nnc4sc(-c5ccc(C)cc5)nn34)c2)cc1-c1nnc2sc(-c3ccc(C)cc3)nn12	100 µg/disc	ATCC 10231	12 mm
O=C(CN1C(=O)S/C(=C\c2c(Cl)cccc2Cl)C1=O)c1ccccc1	5000 µg/mL	ATCC 90028	14 mm
C#Cc1c(-c2ccc([N+](=O)[O-])cc2)c(C#N)c2nc(=O)c3c(-c4ccc(Cl)cc4)csc3n2c1N	1000 µg/mL		2.6 mm
N#Cc1ccc(Nc2nc(Oc3cccc4cccnc34)nc(N3CCN(c4ncccn4)CC3)n2)cc1C(F)(F)F	100 µg/disc	MTCC 183	26 mm
COC(=O)N[C@H](C(=O)NN(CC[C@@]1(Cc2ccccc2)C(=O)N(C2c3ccccc3C[C@H]2O)C[C@H]1O)Cc1ccc(-c2cccnc2)cc1)C(C)(C)C	10 mg/mL		12.8 mm
O=C(NN=Cc1ccc(Br)cc1)c1snnc1C(F)(F)F	150 µg/mL	MTCC 227	0 mm
COc1ccc(/C=C2\SC(=O)N(CC(=O)c3ccc(C#N)cc3)C2=O)cc1	5000 µg/mL	ATCC 90028	14 mm
CC1(C)CC(N2C(=N)C(=S)N(c3ccc(Cl)cc3)C2=O)CC(C)(CN2C(=N)C(=S)N(c3ccc(Cl)cc3)C2=O)C1	100000 µM		22 mm
c1ccc(-c2nc(-c3ccc(N4CCOCC4)cc3)sc2-c2ccccc2)cc1	100 µg/mL	ATCC 10231	20 mm
COc1ccc(C=NNC(=O)c2snnc2C(F)(F)F)cc1	150 µg/mL	MTCC 227	0 mm
CN1CCN(c2nc(Nc3ccc(C#N)c(C(F)(F)F)c3)nc(Oc3cccc4cccnc34)n2)CC1	100 µg/disc	MTCC 183	21 mm
COc1cc(N2C(=N)C(=S)N(c3ccc(Cl)cc3)C2=O)ccc1-c1ccc(N2C(=N)C(=S)N(c3ccc(Cl)cc3)C2=O)cc1OC	100000 µM		20 mm
O=C(CN1C(=O)S/C(=C\c2c(Cl)cccc2Cl)C1=O)c1ccc2ccccc2c1	5000 µg/mL	ATCC 90028	18 mm
c1ccc(-c2nc(-c3ccc(N4CCCC4)cc3)sc2-c2ccccc2)cc1	100 µg/mL	ATCC 10231	23 mm
O=C(NN=Cc1ccc(F)cc1)c1snnc1C(F)(F)F	100 µg/mL	MTCC 227	0 mm
CC(=O)N1N=C(C23CC4CC(CC(C4)C2)C3)OC1c1cc(-c2ccc(Cl)cc2)on1	200 µg	IFO 0583	≤10 mm
COC(=O)N[C@H](C(=O)NN(CC[C@@]1(Cc2ccccc2)C(=O)N(C2c3ccccc3C[C@H]2O)C[C@@H]1O)Cc1ccc(-c2cccnc2)cc1)C(C)(C)C	10 mg/mL		12.8 mm
N=C1C(=S)N(c2ccc(F)cc2)C(=O)N1c1ccc(Cl)cc1	5 mg/mL	IMRU-3669	23 mm
N#Cc1cc(C#N)c2[nH]c(=O)c3c(-c4ccccc4)csc3[n+]2c1N	1000 µg/mL		2.6 mm
Cc1ccc(-c2cc(/C=N/NC(=O)C34CC5CC(CC(C5)C3)C4)no2)cc1	200 µg	IFO 0583	≤10 mm
Cc1ccc(S(=O)(=O)CNc2oc3[nH]c(=O)[nH]c(=O)c3c2-c2ccc(O)cc2)cc1	100 µg/mL		2 mm
CCOC(=O)c1[nH]nc(-c2ccc(F)cc2)c1N=Nc1ccccc1	0.002 µg/mL	ATCC 10231	16 mm
N#Cc1c(-c2ccc(Cl)cc2)csc1NC(=O)C1C=NN=C1N	1000 µg/mL		6.6 mm
O=c1[nH][nH]c(-c2ccc(Br)cc2)c(N=Nc2ccccc2)c1=O	0.002 µg/mL	ATCC 10231	16.5 mm
C=CC(C)(C)c1cc(C2CC(=O)c3c(cc(O)c(CC=C(C)C)c3O)O2)c(O)cc1O	2 mg/mL	hemoculture isolate 37203	12 mm
CC(=NNC(=O)c1snnc1C(F)(F)F)c1ccc(Br)cc1Br	100 µg/mL	MTCC 227	11 mm
COc1ccc(Cc2ccc(OC)c(-c3nnc4sc(-c5ccccc5)nn34)c2)cc1-c1nnc2sc(-c3ccccc3)nn12	100 µg/disc	ATCC 10231	10 mm
CCOC(=O)c1[nH]nc(-c2ccc(Cl)cc2)c1N=Nc1ccccc1	0.002 µg/mL	ATCC 10231	16 mm
COc1ccc(C(=O)CN2C(=O)S/C(=C\c3c(Cl)cccc3Cl)C2=O)cc1	5000 µg/mL	ATCC 90028	18 mm
C[C@H]1[C@H](O)[C@@H](C)/C=C/C=C/C=C/C=C/C=C/C=C/C=C/[C@H](O[C@@H]2O[C@H](C)[C@@H](O)[C@H](N)[C@@H]2O)C[C@@H]2O[C@](O)(C[C@@H](O)C[C@@H](O)CC[C@H](O)[C@@H](O)C[C@@H](O)CC(=O)O[C@H]1C)C[C@H](O)[C@H]2C(=O)O	16 µg/mL	MTCC 277	24 mm
N=C1C(=S)N(c2ccc(Cl)cc2)C(=O)N1CCCCCCN1C(=N)C(=S)N(c2ccc(Cl)cc2)C1=O	100000 µM		19 mm
N=C1C(=S)N(c2ccc(F)cc2)C(=O)N1CCCCCCN1C(=N)C(=S)N(c2ccc(F)cc2)C1=O	5 mg/mL	IMRU-3669	16.5 mm
Cc1ccc(N2C(=O)N(CCCCCCN3C(=N)C(=S)N(c4ccc(C)cc4)C3=O)C(=N)C2=S)cc1	100000 µM		20 mm
N=C1C(=S)N(c2ccc(F)cc2)C(=O)N1c1cc(Cl)c(Cl)cc1Cl	5 mg/mL	IMRU-3669	23 mm
COc1ccc(-c2nn3c(-c4cc(Cc5ccc(OC)c(-c6nnc7sc(-c8ccc(OC)cc8)nn67)c5)ccc4OC)nnc3s2)cc1	100 µg/disc	ATCC 10231	10 mm
Cc1ccc(N2C(=O)N(c3ccc(F)cc3)C(=N)C2=S)cc1	5 mg/mL	IMRU-3669	13.5 mm
Cc1ccc(S(=O)(=O)CNc2oc3[nH]c(=O)[nH]c(=O)c3c2-c2ccc(F)cc2)cc1	100 µg/mL		15 mm
O=C(NN=Cc1ccc([N+](=O)[O-])cc1)c1snnc1C(F)(F)F	100 µg/mL	MTCC 227	0 mm
COc1ccc(-c2cc(C3OC(C45CC6CC(CC(C6)C4)C5)=NN3C(C)=O)no2)cc1	200 µg	IFO 0583	≤10 mm
CC(=NNC(=O)c1snnc1C(F)(F)F)c1ccccc1	100 µg/mL	MTCC 227	0 mm
COc1ccc(/C=C2\SC(=O)N(CC(=O)c3ccc(Cl)cc3)C2=O)cc1	5000 µg/mL	ATCC 90028	16 mm
Cc1ccc(S(=O)(=O)CNc2oc3[nH]c(=O)[nH]c(=O)c3c2-c2ccsc2C=O)cc1	50 µg/mL		0 mm
N=C1C(=S)N(c2ccc(Br)cc2)C(=O)N1c1ccc(Oc2ccc(N3C(=N)C(=S)N(c4ccc(Br)cc4)C3=O)cc2)cc1	100000 µM		23 mm
COC(=O)N[C@H](C(=O)NN(CC[C@@]1(Cc2ccccc2)C(=O)N(C2c3ccccc3C[C@H]2O)C[C@H]1O)Cc1ccc(Br)cc1)C(C)(C)C	10 mg/mL		12.8 mm
CCOC(=O)C(=O)/C(N=Nc1ccccc1)=C(\O)c1ccc(Cl)cc1	0.002 µg/mL	ATCC 10231	16 mm
COc1cc(N2C(=N)C(=S)N(c3ccc(F)cc3)C2=O)ccc1-c1ccc(N2C(=N)C(=S)N(c3ccc(F)cc3)C2=O)cc1OC	5 mg/mL	IMRU-3669	21 mm
COc1ccc(Cc2ccc(OC)c(-c3nnc4sc(-c5cnccn5)nn34)c2)cc1-c1nnc2sc(-c3cnccn3)nn12	100 µg/mL	ATCC 10231	25 mm
O=C(NN=Cc1ccc(Cl)cc1)c1snnc1C(F)(F)F	150 µg/mL	MTCC 227	0 mm
NC(=S)c1ccc(OC(=O)CN2CCCC2)cc1	100 µg/mL	ATCC 10231	23 mm
C#Cc1c(-c2ccc(Cl)cc2)c(C#N)c2nc(=O)c3c(C(=O)OCC)c(C)sc3n2c1N	1000 µg/mL		0 mm

For reference, 9 entries again:

compound	tested at	strain or isolate	result
C=CC(C)(C)c1cc(C2CC(=O)c3c(cc(O)c(CC=C(C)C)c3O)O2)c(O)cc1O	2 mg/mL	hemoculture isolate 37203	12 mm
Cc1ccc(N2C(=O)N(c3ccc(F)cc3)C(=N)C2=S)cc1	5 mg/mL	IMRU-3669	13.5 mm
COc1ccc(-c2nn3c(-c4cc(Cc5ccc(OC)c(-c6nnc7sc(-c8ccc(OC)cc8)nn67)c5)ccc4OC)nnc3s2)cc1	100 µg/disc	ATCC 10231	10 mm
CCOC(=O)c1[nH]nc(-c2ccc(F)cc2)c1N=Nc1ccccc1	0.002 µg/mL	ATCC 10231	16 mm
Cc1ccc(S(=O)(=O)CNc2oc3[nH]c(=O)[nH]c(=O)c3c2-c2ccc(F)cc2)cc1	100 µg/mL		15 mm
COc1ccc(C(=O)CN2C(=O)S/C(=C\c3c(Cl)cccc3Cl)C2=O)cc1	5000 µg/mL	ATCC 90028	18 mm
COC(=O)N[C@H](C(=O)NN(CC[C@@]1(Cc2ccccc2)C(=O)N(C2c3ccccc3C[C@H]2O)C[C@H]1O)Cc1ccc(Br)cc1)C(C)(C)C	10 mg/mL		12.8 mm
CCOc1ccc(S(=O)(=O)N2CCOCC2)cc1-c1nc2ncccc2c(=O)[nH]1	0.002 µg/mL	ATCC 10231	17 mm
CC(=O)N1CCN(c2ccc(OC[C@H]3CO[C@](Cn4ccnc4)(c4ccc(Cl)cc4Cl)O3)cc2)CC1	20 mg/mL	C5	12 mm